Results of unrelated studies side by side (data: NIAID ChemDB).

Common to all: whole-cell or culture tests; species: Cryptococcus neoformans

MIC50, MIC90 and the like: level of inhibition, or share of isolates inhibited.

smiles | endpoint | strain | method | value
CCOC(=O)c1c(C)nc(OCCCNc2ccnc3cc(Cl)ccc23)nc1-c1ccccc1 | MIC99 | VM-MCMMPI | - | 8 µg/mL
OCC1c2ccccc2SC1c1ccccc1 | MIC | Isolate 25 | - | 6 µg/mL
N=C(N)c1ccc(OCCCC(O)COc2ccc(C(=N)N)cc2)cc1 | MIC80 | 167.95 | - | 0.39 µg/mL
CN(C)c1ccc(C2Sc3ccccc3C2CO)cc1 | MIC | Isolate 25 | - | 6 µg/mL
CC[C@H]1/C=C(\C)[C@H](O)[C@H](C)C[C@H](OC)[C@H]2O[C@@](O)(C(=O)C(=O)N3CCCC[C@H]3C(=O)O[C@H](/C(C)=C/[C@@H]3CC[C@@H](O)[C@H](OC)C3)[C@H](C)[C@@H](O)CC1=O)[C@H](C)C[C@@H]2OC | MIC | C21F2 | - | 100 µg/mL
COc1ccc(O)c(C2Sc3ccccc3C2CO)c1 | MIC | Isolate 25 | - | 12.5 µg/mL
CCOC(=O)[C@@H](C)NC(=O)c1c(C)cc2c(c1O)-c1c(cc3c(c1O)C(=O)c1cc(OC)cc(O)c1C3=O)[C@H](O)[C@H]2O[C@@H]1O[C@H](C)[C@H](NC)[C@H](O[C@@H]2OC[C@@H](O)[C@H](O)[C@H]2O)[C@H]1O | MIC | IAM 4514 | - | 12.5 µg/mL
CO[C@H]1[C@@H](O)[C@H](O)[C@H](OC[C@@]23C[C@@H]4[C@H](C)CC[C@H]4[C@@]4(C=O)C[C@@H]2C=C(C(C)C)[C@@]34C(=O)O)O[C@@H]1C | MIC | ATCC66031 | - | >100 µg/mL
Clc1ccc(C(CCCOc2ccccc2)Cn2ccnc2)c(Cl)c1 | MIC | - | - | <1 µg/mL
OCC1c2ccccc2SC1c1ccccc1O | MIC | 93/V | - | 12.5 µg/mL
Cc1nc(NCCCCNc2ccnc3cc(Cl)ccc23)nc(-c2ccccc2)c1C(=O)OC(C)C | MIC99 | F-10 | - | 4 µg/mL
Clc1ccc(C(CCOc2ccccc2)Cn2ccnc2)c(Cl)c1 | MIC | - | - | <1 µg/mL
COc1cc(O)c2c(c1)C(=O)c1c(cc3c(c1O)-c1c(cc(C)c(C(=O)NC(C)C(=O)O)c1O)[C@H](OC1OC(C)C(N(C)C=O)C(OC4OCC(O)C(O)C4O)C1O)[C@H]3O)C2=O | MIC | IAM 4514 | - | 6.3 µg/mL
CNC1C(C)OC(O[C@H]2c3cc(C)c(C(=O)N[C@H](C)C(=O)N[C@@H](C)C(=O)O)c(O)c3-c3c(cc4c(c3O)C(=O)c3cc(OC)cc(O)c3C4=O)[C@@H]2O)C(O)C1OC1OCC(O)C(O)C1O | MIC | IAM 4514 | - | >100 µg/mL
COc1cccc(-c2sc3ccccc3c2CO)c1O | MIC | 93/V | - | >100 µg/mL
C=C1CC[C@H]2C[C@@H]1C2(C)C | MIC | - | agar diffusion / agar | >20000 µg/mL
CNC(NC)c1ccc2cc(-n3cc(CCCO)nn3)c(=O)oc2c1 | MIC | ATCC 28957 | broth dilution | >750 µg/mL
CNC1C(C)OC(O[C@H]2c3cc(C)c(C(=O)N[C@H](C)C(=O)OC)c(O)c3-c3c(cc4c(c3O)C(=O)c3cc(OC)cc(O)c3C4=O)[C@@H]2O)C(O)C1OC1OCC(O)C(O)C1O | MIC | IAM 4514 | - | 12.5 µg/mL
Oc1ccccc1C=Nc1ccccc1O | MIC | WP | broth dilution | 5.7 µg/mL
CCC(C)CC(C)CCCCCCCCC(=O)N[C@H]1C[C@@H](O)[C@H](NCCN)NC(=O)[C@@H]2[C@@H](O)CCN2C(=O)[C@H]([C@H](O)CCN)NC(=O)[C@H]([C@H](O)[C@@H](O)c2ccc(O)cc2)NC(=O)[C@@H]2C[C@@H](O)CN2C(=O)[C@H]([C@@H](C)O)NC1=O | MIC90 | 19 isolates | - | 32 µg/mL
COc1cc(O)c2c(c1)C(=O)c1c(cc3c(c1O)-c1c(cc(C)c(C(=O)NC(C)C(=O)O)c1O)[C@H](OC1OC(C)C(N(C)CC(=O)O)C(OC4OCC(O)C(O)C4O)C1O)[C@H]3O)C2=O | MIC | IAM 4514 | - | 1.6 µg/mL
OCC1c2ccccc2SC1c1ccc2c(c1)OCO2 | MIC | Farwania | - | 12.5 µg/mL
Oc1cccc(C=Nc2ccccc2O)c1 | MIC | C-3-1 | broth dilution | 2.8 µg/mL
Clc1ccc(C(CCOc2ccc(Br)cc2)Cn2ccnc2)c(Cl)c1 | MIC | - | - | <10 µg/mL
CCc1cc(C(C)(C)C)nc2c(NC(C)CCCN)cc(OC)c(Oc3cccc(C(F)(F)F)c3)c12 | EC50 | - | - | 3.5 µg/mL
CCOC(=O)c1c(C)nc(NCCCNc2ccnc3cc(Cl)ccc23)nc1-c1ccccc1 | MIC99 | 96806 | - | 45.3 µg/mL
CCC(C)n1ncn(-c2ccc(N3CCN(c4ccc(OC[C@H]5CO[C@](Cn6cncn6)(c6ccc(Cl)cc6Cl)O5)cc4)CC3)cc2)c1=O | MIC50 | 5 isolates | - | 0.25 µg/mL
CN(C)c1ccc(-c2sc3ccccc3c2CO)cc1 | MIC | Isolate 25 | - | 12.5 µg/mL
COc1cc(O)c2c(c1)C(=O)c1c(cc3c(c1O)-c1c(cc(C)c(C(=O)NC(C)C(=O)O)c1O)[C@H](OC1OC(C)C(N(C)C(=O)CN)C(OC4OCC(O)C(O)C4O)C1O)[C@H]3O)C2=O | MIC | IAM 4514 | - | 3.1 µg/mL
CC(C)N=C(N)c1ccc2nc(-c3ccc(CCc4ccc(-c5nc6ccc(C(N)=NC(C)C)cc6[nH]5)cc4)cc3)[nH]c2c1 | MIC80 | 119.95 | - | 0.19 µg/mL
CC1=CC[C@H]2C[C@@H]1C2(C)C | MIC | - | agar diffusion / agar | 117 µg/mL
O=C(NCCCN1CCOCC1)c1ccc(-c2ccc(-c3ccc(C(=O)NCCCN4CCOCC4)cc3)o2)cc1 | MIC80 | H99 | - | >100 µg/mL
Clc1ccc(OCCCC(Cn2ccnc2)c2ccc(Cl)cc2Cl)cc1 | MIC | - | - | 10 µg/mL
Oc1ccc(O)c(C=Nc2ccccc2O)c1 | MIC99 | ATCC 62066 | - | 2.8 µg/mL
N=C(N)c1ccc(NCCCNc2ccc(C(=N)N)cc2[N+](=O)[O-])c([N+](=O)[O-])c1 | MFC | 135.95 | - | 6.25 µg/mL
CNOC(=O)[C@@H](C)NC(=O)c1c(C)cc2c(c1O)-c1c(cc3c(c1O)C(=O)c1cc(OC)cc(O)c1C3=O)[C@H](O)[C@H]2OC1OC(C)C(NC)C(OC2OCC(O)C(O)C2O)C1O | MIC | IAM 4514 | - | 1.6 µg/mL
Clc1ccc(C(CCCOc2ccccc2Br)Cn2ccnc2)c(Cl)c1 | MIC | - | - | <1 µg/mL
O=[N+]([O-])c1ccc(C=Nc2ccccc2O)cc1 | MIC99 | 28JF | - | 11.3 µg/mL
COc1cc(O)c2c(c1)C(=O)c1c(cc3c(c1O)-c1c(cc(C)c(C(=O)NC(C)C(=O)O)c1O)[C@H](OC1OC(C)C(N(C)C(=O)c4ccccc4)C(OC4OCC(O)C(O)C4O)C1O)[C@H]3O)C2=O | MIC | IAM 4514 | - | >100 µg/mL
Oc1ccccc1N=Cc1ccc(O)c(O)c1O | MIC | GM | broth dilution | 11.3 µg/mL
Clc1ccc(OCC(Cn2ccnc2)c2ccc(Cl)cc2)cc1 | MIC | - | - | <1 µg/mL

Neighbouring rows are from separate reports. An empty or dashed field is not shown. ECn: concentration that inhibits the pathogen or its effect by n%.